Compound potency records, mixed from different reports. Data source: NIAID ChemDB in PubChem.

Shared fields: whole-cell or culture tests; species: Mycobacterium avium complex; measure: MIC90

A number after MIC or MFC names an inhibition level or a share of isolates.

CC(=O)NC[C@H]1CN(c2ccc(N3CCN(Cc4ccc([N+](=O)[O-])o4)CC3)c(F)c2)C(=O)O1 ; strain or isolate: 31 isolates ; result: 32 µg/mL
O[C@@H](c1cc2ccc(C(F)(F)F)cc2c2cc(C(F)(F)F)ccc12)[C@H]1CCCCN1 ; strain or isolate: 24 clinical isolates ; result: 4 µg/mL
CC(C)N=C(N)/N=C(\N)NOCCCOc1cc(Cl)c(Cl)cc1Cl ; strain or isolate: 31 strains ; result: 32 µg/mL
CC1COc2c(N3CCN(C)CC3)c(F)cc3c(=O)c(C(=O)O)cn1c23 ; strain or isolate: 18 strains ; result: 50 µg/mL
CN1CCN(CCCN=c2cc3n(-c4ccc(Cl)cc4)c4ccccc4nc-3cc2Nc2ccccc2)CC1 ; strain or isolate: 10 strains (HIV+) ; result: 3.3 µg/mL
NC[C@H]1O[C@H](O[C@H]2[C@H](O)[C@@H](O[C@H]3O[C@H](CO)[C@@H](O)[C@H](N)[C@H]3O)[C@H](N)C[C@@H]2N)[C@H](O)[C@@H](O)[C@@H]1O ; strain or isolate: 25 isolates ; result: >64 µg/mL
O=C(NCCCl)N1CCC(CN=c2cc3n(-c4ccc(Cl)cc4)c4ccccc4nc-3cc2Nc2ccc(Cl)cc2)CC1 ; strain or isolate: 5 strains ; result: 2 µg/mL
C[C@H]1COc2c(N3CCN(C)CC3)c(F)cc3c(=O)c(C(=O)O)cn1c23 ; strain or isolate: 53 strains ; result: 12.5 µg/mL
CC[C@H]1OC(=O)[C@H](C)C(=O)[C@H](C)[C@@H](O[C@@H]2O[C@H](C)C[C@H](N(C)C)[C@H]2O)[C@](C)(OC)C[C@@H](C)C(=O)[C@H](C)[C@H]2N(CCCCc3ccccc3)C(=O)O[C@]12C ; strain or isolate: 24 strains (HIV+) ; result: 27 µg/mL
O=C(O)c1cn(N2CCOCC2)c2cc(NC3CC3)c([N+](=O)[O-])cc2c1=O ; result: 8.9 µM
CN1CCN(c2c(F)cc3c(=O)c(C(=O)O)cn(CCF)c3c2F)CC1 ; result: 50 µg/mL
CO[C@H]1/C=C/O[C@@]2(C)Oc3c(C)c(O)c4c(O)c(c5c(c4c3C2=O)NC2(CCN(CC(C)C)CC2)N=5)=NC(=O)/C(C)=C\C=C\[C@H](C)[C@H](O)[C@@H](C)[C@@H](O)[C@@H](C)[C@H](OC(C)=O)[C@@H]1C ; strain or isolate: 211 strains ; result: 1.25 µg/mL
N[C@@H]1CN(c2c(F)cc3c(=O)c(C(=O)O)cn([C@@H]4C[C@@H]4F)c3c2Cl)CC12CC2 ; strain or isolate: 18 strains ; result: 12.5 µg/mL
CC[C@H]1OC(=O)C[C@@H](O)[C@H](C)[C@@H](O[C@@H]2O[C@H](C)[C@H](O[C@H]3C[C@@](C)(O)[C@@H](O)[C@H](C)O3)[C@H](N(C)C)[C@H]2O)[C@@H](CCOc2ccccc2)C[C@@H](C)C(=O)/C=C/C(C)=C/[C@@H]1COC1O[C@H](C)[C@@H](O)[C@@H](OC)[C@H]1OC ; strain or isolate: 28 strains ; result: ≥64 µg/mL
CN1CCCC1CCN=c1cc2n(-c3ccc(Cl)cc3)c3ccccc3nc-2cc1Nc1ccccc1 ; strain or isolate: 10 strains (HIV+) ; result: 2 µg/mL
CC[C@H]1OC(=O)[C@H](C)[C@@H](O[C@H]2C[C@@](C)(OC)[C@@H](O)[C@H](C)O2)[C@H](C)[C@@H](O[C@@H]2O[C@H](C)C[C@H](N(C)C)[C@H]2O)[C@](C)(OC)C[C@@H](C)C(=O)[C@H](C)[C@@H](O)[C@]1(C)O ; strain or isolate: 25 isolates ; result: >8 µg/mL
Cc1c(F)c(N2CCNC(C)C2)cc2c1c(=O)c(C(=O)O)cn2C1CC1 ; strain or isolate: 53 strains ; result: 12.5 µg/mL
CCCCN(CCCC)C[C@H](O)c1cc2c(Cl)cc(Cl)cc2c2cc(C(F)(F)F)ccc12 ; strain or isolate: 24 clinical isolates ; result: 16 µg/mL
CN[C@@H]1[C@H](O[C@H]2[C@H](O[C@H]3[C@H](O)[C@@H](O)[C@H](N=C(N)N)[C@@H](O)[C@@H]3N=C(N)N)O[C@@H](C)[C@]2(O)C=O)O[C@@H](CO)[C@H](O)[C@H]1O ; strain or isolate: 25 isolates ; result: 64 µg/mL
O[C@@H](c1cc2ccc(C(F)(F)F)cc2c2cc(C(F)(F)F)ccc12)[C@@H]1CCCCN1 ; strain or isolate: 24 clinical isolates ; result: 4 µg/mL
CC[C@H]1OC(=O)[C@H](C)[C@@H](O[C@H]2C[C@@](C)(OC)[C@@H](O)[C@H](C)O2)[C@H](C)[C@@H](O[C@@H]2O[C@H](C)C[C@H](N(C)C)[C@H]2O)[C@](C)(OC)C[C@@H](C)C(=O)[C@H](C)[C@@H](O)[C@]1(C)O ; strain or isolate: 28 strains ; result: 8 µg/mL
C[C@H]1C[C@H](N)CN1c1cc2c(cc1F)c(=O)c(C(=O)O)cn2-c1ccc(F)cc1F ; strain or isolate: 25 isolates ; result: >8 µg/mL
COc1cccc2c1[n+]([O-])c1cccc(O)c1[n+]2[O-] ; strain or isolate: 5 strains ; result: 0.25 µg/mL
CC[C@H]1OC(=O)[C@H](C)[C@@H](O[C@H]2C[C@@](C)(OC)[C@@H](O)[C@H](C)O2)[C@H](C)[C@@H](O[C@@H]2O[C@H](C)C[C@H](N(C)C)[C@H]2O)[C@](C)(OC)C[C@@H](C)C(=O)[C@H](C)[C@@H](O)[C@]1(C)O ; strain or isolate: 20 strains ; result: 4 µg/mL
CC1COc2c(N3CCN(C)CC3)c(F)cc3c(=O)c(C(=O)O)cn1c23 ; strain or isolate: 53 strains ; result: 25 µg/mL
NC[C@H]1O[C@H](O[C@H]2[C@H](O)[C@@H](O[C@H]3O[C@H](CO)[C@@H](O)[C@H](N)[C@H]3O)[C@H](N)C[C@@H]2N)[C@H](N)C[C@@H]1O ; strain or isolate: 25 isolates ; result: >64 µg/mL
COc1cccc2c1nc1cccc(OC)c1[n+]2[O-] ; strain or isolate: 5 strains ; result: 32 µg/mL
CCn1cc(C(=O)O)c(=O)c2cc(F)c(N3CCN(C)CC3)cc21 ; strain or isolate: 89 isolates ; result: >16 µg/mL
CC(C)(C)n1cc(C(=O)O)c(=O)c2cc([N+](=O)[O-])c(N3CCOCC3)cc21 ; result: 50 µM
COc1c(N2CCNC(C)C2)c(F)cc2c(=O)c(C(=O)O)cn(C3CC3)c12 ; strain or isolate: 53 strains ; result: 6.25 µg/mL
CC[C@H]1OC(=O)[C@H](C)[C@@H](O[C@H]2C[C@@](C)(OC)[C@@H](O)[C@H](C)O2)[C@H](C)[C@@H](O[C@@H]2O[C@H](C)C[C@H](N(C)C)[C@H]2O)[C@](C)(O)C[C@@H](C)C(=O)[C@H](C)[C@@H](O)[C@]1(C)O ; strain or isolate: 28 strains ; result: ≥64 µg/mL
O=C(O)c1cn(N2CCSCC2)c2cc(NC3CC3)c([N+](=O)[O-])cc2c1=O ; result: 5.8 µM
COc1c(N2CCC(n3ccnn3)C2)c(F)cc2c(=O)c(C(=O)O)cn(C3CC3)c12 ; strain or isolate: 24 strains ; result: >16 µg/mL
CC[C@H]1OC(=O)[C@H](C)[C@@H](O[C@H]2C[C@@](C)(OC)[C@@H](O)[C@H](C)O2)[C@H](C)[C@@H](O[C@@H]2O[C@H](C)C[C@H](N(C)C)[C@H]2O)[C@](C)(O)C[C@@H](C)C(NCCOC)[C@H](C)[C@@H](O)[C@]1(C)O ; strain or isolate: 28 strains ; result: ≥64 µg/mL
CC1COc2c(N3CCN(C)CC3)c(F)cc3c(=O)c(C(=O)O)cn1c23 ; strain or isolate: 25 isolates ; result: >8 µg/mL

Repeating the final 2 entries:

smiles,strain or isolate,result
CC[C@H]1OC(=O)[C@H](C)[C@@H](O[C@H]2C[C@@](C)(OC)[C@@H](O)[C@H](C)O2)[C@H](C)[C@@H](O[C@@H]2O[C@H](C)C[C@H](N(C)C)[C@H]2O)[C@](C)(O)C[C@@H](C)C(NCCOC)[C@H](C)[C@@H](O)[C@]1(C)O,28 strains,≥64 µg/mL
CC1COc2c(N3CCN(C)CC3)c(F)cc3c(=O)c(C(=O)O)cn1c23,25 isolates,>8 µg/mL

Neighbouring rows are from separate reports.